Measured values from several laboratories, pooled; numbers as filed in NIAID ChemDB.

All rows: whole-cell or culture tests; organism: Candida albicans; endpoint: MIC90

Blank or dashed fields: not listed here. A number after MIC or MFC names an inhibition level or a share of isolates. Conditions beyond the fields shown may differ between rows.

smiles,strain or isolate,method,conditions,value
COc1ccc(C(Cn2ccnc2)OCc2ccc(Cl)cc2Cl)cc1OC,,,,>100 µg/mL
C=CCSS(=O)CC=C,ATCC 14053,,,0.1 µg/mL
Clc1ccc(COc2ccc(C(c3cccc4ccccc34)n3ccnc3)cc2)cc1.O=[N+]([O-])O,17 strains,,,≥256 µg/mL
c1ccc(-c2c[nH]cc2C(c2cccc3ccccc23)n2ccnc2)cc1,33 strains,,,16 µg/mL
COc1ccc(C(c2ccc(OC)cc2)n2ccnc2)cc1,,agar,,>256 µg/mL
OC[C@H]1CO[C@](Cn2ccnc2)(c2ccc(-c3ccccc3)cc2)O1,44 strains,,,>256 µg/mL
Fc1ccccc1COc1ccc(C(c2cccc3ccccc23)n2ccnc2)cc1.O=[N+]([O-])O,17 strains,,,≥256 µg/mL
CCC(C)n1ncn(-c2ccc(N3CCN(c4ccc(OC[C@H]5CO[C@](Cn6cncn6)(c6ccc(Cl)cc6Cl)O5)cc4)CC3)cc2)c1=O,50 isolates,,,0.39 µg/mL
COc1ccc(COC(Cn2cncn2)c2ccc(Cl)cc2Cl)cc1OC,,,,>100 µg/mL
Clc1ccc(C(Cn2ccnc2)OCc2csc3c(Cl)cccc23)c(Cl)c1,16 strains,,,2 µg/mL
C=CCN1C[C@H](OC[C@@]23C[C@@H]4[C@H](C)CC[C@H]4[C@@]4(C=O)C[C@@H]2CC(C(C)C)[C@@]34C(=O)O)O[C@H](C)C1,16 isolates/fluconazole resistant,,,0.06 µg/mL
Clc1cccc(Cl)c1COc1ccc(C(c2ccc3ccccc3c2)n2ccnc2)cc1.O=[N+]([O-])O,16 strains,,,≥256 µg/mL
Clc1ccc(C(c2ccccc2)n2cnc3ccccc32)cc1,,agar,,16 µg/mL
c1ccc(C(c2cccc3ccccc23)n2ccnc2)cc1,23 strains,,,16 µg/mL
OC(Cn1cncn1)(Cn1cncn1)c1ccc(F)cc1F,50 isolates,,,40 µg/mL
C[C@H]1[C@H](O)[C@@H](C)/C=C/C=C/C=C/C=C/C=C/C=C/C=C/[C@H](O[C@@H]2O[C@H](C)[C@@H](O)[C@H](N)[C@@H]2O)C[C@@H]2O[C@](O)(C[C@@H](O)C[C@@H](O)CC[C@H](O)[C@@H](O)C[C@@H](O)CC(=O)O[C@H]1C)C[C@H](O)[C@H]2C(=O)O,63 isolates,,,1 µg/mL
COc1ccc(C(Cc2ccc(Cl)cc2)n2cncn2)cc1,28 strains,,,64 µg/mL
CC(=O)OCC1C=C(c2cccc(Cl)c2)C(=O)O1,16 isolates fluconazole-susceptible,,,2 µg/mL
COc1ccc(C(Cc2ccc(Cl)cc2)n2cnnc2)cc1,28 strains,,,256 µg/mL
COc1ccc(C(Cc2ccccc2F)n2ccnc2)cc1,34 strains,,,256 µg/mL
COc1ccc(C(C(Cc2ccc(Cl)cc2Cl)c2ccc(Cl)cc2)n2cncn2)cc1,28 strains,,,256 µg/mL
CC(=O)N1CCN(c2ccc(OC[C@H]3CO[C@](Cn4ccnc4)(c4ccc(Cl)cc4Cl)O3)cc2)CC1,50 isolates,,,0.2 µg/mL
C[C@@H](c1ncncc1F)[C@](O)(Cn1cncn1)c1ccc(F)cc1F,660 isolates,,,0.06 µg/mL
Clc1ccc(COc2ccc(C(c3nccc4ccccc34)n3ccnc3)cc2)cc1.O=[N+]([O-])O,16 strains,,,≥256 µg/mL
CCC(C)CC(C)CCCCCCCCC(=O)N[C@H]1C[C@@H](O)[C@H](NCCN)NC(=O)[C@@H]2[C@@H](O)CCN2C(=O)[C@H]([C@H](O)CCN)NC(=O)[C@H]([C@H](O)[C@@H](O)c2ccc(O)cc2)NC(=O)[C@@H]2C[C@@H](O)CN2C(=O)[C@H]([C@@H](C)O)NC1=O,10 strains (fluconazole- itraconazole-susceptible),,,1 µg/mL
CC(=O)N1CCN(c2ccc(OC[C@H]3CO[C@](Cn4ccnc4)(c4ccc(Cl)cc4Cl)O3)cc2)CC1,ATCC 14053,,,0.5 µg/mL
C=C(CF)CN1C[C@H](OC[C@@]23C[C@@H]4[C@H](C)CC[C@H]4[C@@]4(C=O)C[C@@H]2CC(C(C)C)[C@@]34C(=O)O)O[C@H](C)C1,16 isolates,,,0.008 µg/mL
Clc1ccc(COC(Cn2cncn2)c2cccc3ccccc23)c(Cl)c1,,,,>100 µg/mL
CC[C@@H]([C@H](C)O)n1ncn(-c2ccc(N3CCN(c4ccc(OC[C@@H]5CO[C@@](Cn6cncn6)(c6ccc(F)cc6F)C5)cc4)CC3)cc2)c1=O,17 isolates fluconazole-susceptible,,,0.06 µg/mL
O=C(OCC1COC(Cn2ccnc2)(c2ccc(-c3ccccc3)cc2)O1)c1ccccc1,44 strains,,,32 µg/mL
CCC(C)n1ncn(-c2ccc(N3CCN(c4ccc(OC[C@H]5CO[C@](Cn6cncn6)(c6ccc(Cl)cc6Cl)O5)cc4)CC3)cc2)c1=O,Fluconazole-susceptible,,,0.12 µg/mL
CCC(c1ccc(Cl)cc1)C(c1ccc(OC)cc1)n1cncn1,28 strains,,,128 µg/mL
CS(=O)(=O)OCC1COC(Cn2ccnc2)(c2ccc(-c3ccccc3)cc2)O1,44 strains,,,128 µg/mL
CCC(c1ccc(OC)cc1)C(O)c1ccc(OC)cc1,28 strains,,,>256 µg/mL
c1csc(C(c2ccc3ccccc3c2)n2ccnc2)c1,23 strains,,,8 µg/mL
CC(N1CCN(c2ccc(-n3cnn(Cc4ccc(C(F)(F)F)cc4)c3=O)cc2)CC1)C(O)(Cn1cncn1)c1ccc(F)cc1F,6 strains (fluconazole-resistant),,,0.19 µg/mL
COc1ccc(CC(c2ccc(OC)cc2)n2ccnc2)cc1,28 strains,,,128 µg/mL
C/C(C=NCCN=C/C(C)=C\c1ccccc1)=C/c1ccccc1,ATCC 44829,agar diffusion,,110 µM
O=C(c1ccccc1)C(c1ccccc1)n1cnc2ccccc21,,agar,,64 µg/mL
COc1ccc(CC(c2ccc(OC)cc2)n2cncn2)cc1,28 strains,,,256 µg/mL
CC(=O)OCC1C=C(c2ccc(Br)cc2)C(=O)O1,16 isolates fluconazole-susceptible,,,2 µg/mL
Cn1cc(-c2ccccc2)c(C(c2cccc3ccccc23)n2ccnc2)c1,33 strains,,,32 µg/mL
Clc1ccc(C(Cn2cncn2)OCc2ccc3ccccc3c2)c(Cl)c1,,,,>100 µg/mL
CCCCCCCCOc1ccc(-c2ccc(C(=O)NC3CC(NCCN)CNC(=O)[C@@H]4[C@@H](O)[C@@H](C)CN4C(=O)[C@@H](CO)NC(=O)[C@H]([C@H](O)Cc4ccccc4)NC(=O)[C@@H]4C[C@@H](O)CN4C(=O)[C@H]([C@@H](C)O)NC3=O)cc2)cc1,30 isolates fluconazole-susceptible,,,0.25 µg/mL
Clc1ccc(C(c2cccc3ccccc23)n2ccnc2)cc1,23 strains,,,8 µg/mL
COc1ccc(C(Cc2ccccc2-n2cccc2)n2ccnc2)cc1,34 strains,,,32 µg/mL
Cn1cc(-c2ccccc2)c(C(c2ccc(-c3ccccc3)cc2)n2ccnc2)c1,33 strains,,,>256 µg/mL
c1ccc(C(c2ccccc2)n2cncn2)cc1,,agar,,32 µg/mL
COc1ccc(C(=O)C(Cc2ccc(Cl)cc2Cl)c2ccc(Cl)cc2)cc1,28 strains,,,256 µg/mL
CCCCCOc1ccc(-c2cc(-c3ccc(C(=O)N[C@H]4C[C@@H](O)[C@@H](O)NC(=O)[C@@H]5[C@@H](O)[C@@H](C)CN5C(=O)[C@H]([C@H](O)CC(N)=O)NC(=O)[C@H]([C@H](O)[C@@H](O)c5ccc(O)c(OS(=O)(=O)O)c5)NC(=O)[C@@H]5C[C@@H](O)CN5C(=O)[C@H]([C@@H](C)O)NC4=O)cc3)no2)cc1,Fluconazole-resistant 4 isolates pooled,,,0.0313 µg/mL
C[C@H]1[C@H](O)[C@@H](C)/C=C/C=C/C=C/C=C/C=C/C=C/C=C/[C@H](O[C@@H]2O[C@H](C)[C@@H](O)[C@H](N)[C@@H]2O)C[C@@H]2O[C@](O)(C[C@@H](O)C[C@@H](O)CC[C@H](O)[C@@H](O)C[C@@H](O)CC(=O)O[C@H]1C)C[C@H](O)[C@H]2C(=O)O,ATCC 90028,,,0.2 µg/mL
Clc1ccc(COC(Cn2ccnc2)c2cc3ccccc3o2)c(Cl)c1,,,,62 µg/mL
c1ccc(C(c2ccccc2)n2nnc3ccccc32)cc1,,agar,,>256 µg/mL
COc1ccc(C(Cc2ccccc2N)n2ccnc2)cc1,34 strains,,,64 µg/mL
C=C(C)CN1C[C@H](OC[C@@]23C[C@@H]4[C@H](C)CC[C@H]4[C@@]4(C=O)C[C@@H]2CC(C(C)C)[C@@]34C(=O)O)O[C@H](C)C1,16 isolates/fluconazole resistant,,,0.015 µg/mL
Clc1ccc(C(Cn2ccnc2)OCc2csc3c(Cl)cccc23)c(Cl)c1,63 isolates,visual reading,24 h,4 µg/mL
C[C@@H](c1ncncc1F)[C@](O)(Cn1cncn1)c1ccc(F)cc1F,Isolate HR-Micro,,48 h,0.39 µg/mL
C[C@H]1[C@H](O)[C@@H](C)/C=C/C=C/C=C/C=C/C=C/C=C/C=C/[C@H](O[C@@H]2O[C@H](C)[C@@H](O)[C@H](N)[C@@H]2O)C[C@@H]2O[C@](O)(C[C@@H](O)C[C@@H](O)CC[C@H](O)[C@@H](O)C[C@@H](O)CC(=O)O[C@H]1C)C[C@H](O)[C@H]2C(=O)O,13 strains (fluconazole-resistant),,,0.25 µg/mL
Cc1ccc(C(c2cccc3ccccc23)n2ccnc2)cc1,23 strains,,,64 µg/mL
Nc1[nH]c(=O)ncc1F,40 isolates azole-susceptible,,,0.64 µg/mL
Cc1ccc(C(C)C)cc1O,,,,125 µg/mL
C=CCSS(=O)CC=C,Clinical Isolate 3151,broth dilution,,3.13 µg/mL
COc1ccc(C(Cc2cccc(F)c2)n2ccnc2)cc1,34 strains,,,256 µg/mL
Clc1ccc(COC(Cn2cncn2)c2ccc3c(c2)OCO3)c(Cl)c1,,,,>100 µg/mL
c1ccc(-c2ccc(C(c3cccc4ccccc34)n3ccnc3)cc2)cc1,23 strains,,,>256 µg/mL
C=CCc1ccc(O)c(OC)c1,3081,turbidity,,495 µg/mL
Clc1ccc(COC(Cn2ccnc2)c2ccc3ccccc3c2)c(Cl)c1,,,,86 µg/mL
CCC(C)n1ncn(-c2ccc(N3CCN(c4ccc(OC[C@H]5CO[C@](Cn6cncn6)(c6ccc(Cl)cc6Cl)O5)cc4)CC3)cc2)c1=O,58 strains,,,0.25 µg/mL
CC(=O)N1CCN(c2ccc(OC[C@H]3CO[C@](Cn4ccnc4)(c4ccc(Cl)cc4Cl)O3)cc2)CC1,10 isolates azole-resistant,,,0.04 µg/mL
CCC(C)n1ncn(-c2ccc(N3CCN(c4ccc(OC[C@H]5CO[C@](Cn6cncn6)(c6ccc(Cl)cc6Cl)O5)cc4)CC3)cc2)c1=O,TIMM3317 (azole-resistant),,,>51 µg/mL
Clc1ccc(COC(Cn2ccnc2)c2ccc(Cl)cc2Cl)c(Cl)c1,16 strains,,,2 µg/mL
COc1ccc(C(Cc2ccc(Cl)cc2Cl)C(c2ccc(OC)cc2)n2ccnc2)cc1,28 strains,,,128 µg/mL
COc1ccc(C(Cc2cccc(-n3cccc3)c2)n2ccnc2)cc1,34 strains,,,256 µg/mL
CC(=O)N1CCN(c2ccc(OCC3COC(Cn4ccnc4)(c4ccc(-c5ccccc5)cc4)O3)cc2)CC1,44 strains,,,64 µg/mL
Clc1cccc(Cl)c1COc1ccc(C(c2cccc3ccccc23)n2ccnc2)cc1.O=[N+]([O-])O,16 strains,,,≥256 µg/mL

For reference, 11 entries again:

smiles | strain or isolate | method | conditions | value
CC(=O)N1CCN(c2ccc(OC[C@H]3CO[C@](Cn4ccnc4)(c4ccc(Cl)cc4Cl)O3)cc2)CC1 | ATCC 14053 |  |  | 0.5 µg/mL
COc1ccc(C(Cc2ccccc2N)n2ccnc2)cc1 | 34 strains |  |  | 64 µg/mL
c1ccc(-c2c[nH]cc2C(c2cccc3ccccc23)n2ccnc2)cc1 | 33 strains |  |  | 16 µg/mL
Clc1ccc(C(Cn2ccnc2)OCc2csc3c(Cl)cccc23)c(Cl)c1 | 16 strains |  |  | 2 µg/mL
Cn1cc(-c2ccccc2)c(C(c2cccc3ccccc23)n2ccnc2)c1 | 33 strains |  |  | 32 µg/mL
COc1ccc(C(Cc2cccc(-n3cccc3)c2)n2ccnc2)cc1 | 34 strains |  |  | 256 µg/mL
Clc1ccc(C(c2ccccc2)n2cnc3ccccc32)cc1 |  | agar |  | 16 µg/mL
c1csc(C(c2ccc3ccccc3c2)n2ccnc2)c1 | 23 strains |  |  | 8 µg/mL
COc1ccc(CC(c2ccc(OC)cc2)n2cncn2)cc1 | 28 strains |  |  | 256 µg/mL
COc1ccc(C(Cc2ccccc2F)n2ccnc2)cc1 | 34 strains |  |  | 256 µg/mL
Cc1ccc(C(C)C)cc1O |  |  |  | 125 µg/mL